{"source": "ChEMBL document CHEMBL2401620", "about": "“Molecular design, synthesis and biological evaluation of BP-O-DAPY and O-DAPY derivatives as non-nucleoside HIV-1 reverse transcriptase inhibitors” (Eur J Med Chem, 2013)", "biological_target": "Human immunodeficiency virus type 1 reverse transcriptase (Human immunodeficiency virus 1, UniProt Q72547, K103N/Y181C)", "assay": "Inhibition of HIV RT K103N/Y181C mutant by cell based assay", "note": "pEC50: −log10 of the molar value."}
{"smiles": "Cc1cc(C#N)cc(C)c1Oc1nc(Nc2ccc(C#N)cc2)nc(N)c1Br", "note": "[ETRAVIRINE]", "values": [{"measurement": "pEC50", "result": 8.30}]}
